The experiment addresses dTRPA1 (Drosophila melanogaster, UniProt Q7Z020). The experiment can be described thus: Two-electrode voltage clamping on Xenopus laevis oocytes expressing dTRPA1. In kind it is cell-based. The note with it: 30 μM, applied after nicotine.

The chains behind the UniProt entries cited, without tags or fusion partners. Where a name states a change or a piece, a line headed by the entry shows the natural chain unless it says otherwise.
UniProt Q7Z020: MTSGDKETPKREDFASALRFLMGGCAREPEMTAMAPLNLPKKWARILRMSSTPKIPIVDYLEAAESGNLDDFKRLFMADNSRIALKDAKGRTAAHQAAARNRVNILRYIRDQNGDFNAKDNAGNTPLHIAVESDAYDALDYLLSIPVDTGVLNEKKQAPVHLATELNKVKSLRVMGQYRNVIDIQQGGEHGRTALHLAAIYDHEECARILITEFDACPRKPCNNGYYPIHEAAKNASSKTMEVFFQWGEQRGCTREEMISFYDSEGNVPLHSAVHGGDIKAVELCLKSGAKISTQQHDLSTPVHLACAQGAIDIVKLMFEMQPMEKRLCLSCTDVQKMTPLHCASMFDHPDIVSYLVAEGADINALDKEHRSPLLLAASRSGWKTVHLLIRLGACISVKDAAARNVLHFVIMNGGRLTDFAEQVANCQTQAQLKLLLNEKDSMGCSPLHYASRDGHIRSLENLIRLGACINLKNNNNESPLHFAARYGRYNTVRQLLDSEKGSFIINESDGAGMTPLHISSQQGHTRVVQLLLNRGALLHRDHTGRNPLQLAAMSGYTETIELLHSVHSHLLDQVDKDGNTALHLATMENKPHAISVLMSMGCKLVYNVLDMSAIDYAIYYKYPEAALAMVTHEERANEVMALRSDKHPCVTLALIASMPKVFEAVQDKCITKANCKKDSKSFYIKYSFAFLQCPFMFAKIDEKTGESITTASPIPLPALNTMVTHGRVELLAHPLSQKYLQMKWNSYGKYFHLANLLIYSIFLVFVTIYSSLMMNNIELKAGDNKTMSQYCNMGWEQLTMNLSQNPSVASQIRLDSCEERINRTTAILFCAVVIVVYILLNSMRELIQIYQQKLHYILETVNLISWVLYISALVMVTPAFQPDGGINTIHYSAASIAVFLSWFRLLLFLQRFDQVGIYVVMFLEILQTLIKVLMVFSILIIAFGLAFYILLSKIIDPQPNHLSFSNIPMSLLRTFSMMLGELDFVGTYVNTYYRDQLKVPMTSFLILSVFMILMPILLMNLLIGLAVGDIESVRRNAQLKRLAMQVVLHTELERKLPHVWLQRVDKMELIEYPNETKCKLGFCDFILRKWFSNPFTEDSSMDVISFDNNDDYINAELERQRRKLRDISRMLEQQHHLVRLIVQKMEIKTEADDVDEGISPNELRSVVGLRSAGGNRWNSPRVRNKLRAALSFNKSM

We go through one molecule from patent US9986740B2, “Methods of identifying insect-TRPA1 modulators” (BRANDEIS UNIVERSITY, priority 2010, dated 2018).

Consider `O=[As]c1ccccc1` (stereo not shown), for which the “Activation of dTRPA1 by cysteine-modifying reagent” value is reported as “activation”.
